From patent US7718768B2, “Biologically active peptide [sequence]” (CMS Peptides Patent Holding Company Limited, priority 2001, dated 2010)

System: T lymphocyte
Experiment: T lymphocyte IL-2 secretion test (HT-2 cell bioassay of ConA supernatant)
Format: in vivo, BALB/c mice
Details: IFN-γ and IL-2 groups 3×10^5 IU/kg/day, X ± SD
Protocol: The above substances were all dissolved in 0.5 ml saline and injected intraperitoneal (i.p.) for 15 continuous days, once per day.
Spleen cells of density 1×10^6/ml were placed onto a 96 wells cell culture plate, 100 μl/well, three parallel wells each of the assay sample and control sample per mouse. To the assay wells, 100 μl/well ConA of 100 μg/ml in RPMI-1640 was added, and 100 μl/well plain RPMI-1640 was used for the controls. The cells were incubated for 66 hrs at 37° C., 5% CO2. The cells were then pelleted by centrifugation at 150 g for 10 minutes. The supernatant was collected and stored at −20° C. for cytokines IL-2 and IFN determination.
HT-2 cells at log phase were collected by centrifugation at 150 g for 10 minutes, and washed three times with cold Hank's solution by re-suspension and centrifugation. The collected HT-2 cells were re-suspended in RPMI-1640 and incubated at 37° C., 5% CO2 for 30 minutes. The cells were further washed twice with RPMI-1640 by re-suspension and centrifugation, and re-suspended to final concentration of 2×10^5/ml with RPMI-1640.
The supernatant obtained in section 1.2 were diluted to the following percentage with RPMI-1640: 100%, 50%, 25%, 12.5%, 6.25%, and 3.125%.
rIL-2 was diluted to the following concentration with RPMI-1640: 500 IU/ml, 250 IU/ml, 125 IU/ml, 62.5 IU/ml, 31.25 IU/ml, and […].
A 96 well cell culture plate was set up with three parallel wells per combination:
Negative control: 100 μl RPMI-1640+100 μl HT-2 cell suspension
rIL-2 standard: 100 μl rIL-2 solution+100 μl HT-2 cell suspension
Assay well: 100 μl diluted supernatant+100 μl HT-2 cell suspension
The plate was incubated at 37° C., 5% CO2 for 68 hours, then centrifuged at 150 g for 15 minutes and the supernatant removed. 100 μl 0.5 mg/ml MTT in RPMI-1640 without phenolsulfonphthalein was added into each well. After shaking for 3-4 minutes to re-suspend the cells, continue to incubate for another 4 hours. Samples were then centrifuged at 150 g for 15 minutes and the supernatant was removed. To each well, 120 μl 40 mM HCl-2-propanol was added, mixed for 3-4 minutes and OD analyzed at 570 nm, referenced at 630 nm with an ELISA plate reader.
The average OD of the three parallel wells of each dilution was taken and plotted against concentration on a semi-log paper, concentration on the X-axis. The concentration at 50% OD saturation was obtained for both the testing supernatant and rIL-2. Sample IL-2 activity=(sample dilution at 50% maximum action÷rIL-2 standard dilution at 50% maximum action)×activity of rIL-2 standard at 50% maximum action (IU/ml) 1.5 The Effect of Peptides on the Activity of T Lymphocyte in Secreting Interferon (IFN)^[6]

With “IL-2: recombinant human interleukin-2, Shanghai Huaxin Biotech Inc.; positive control immunostimulant” the “activity of T lymphocyte in secreting IL-2” value (“activity of T lymphocyte” below) (peptide 0.5 μg/kg/day i.p. 15 days) was 73 ± 13 IU, the “activity of T lymphocyte” value (peptide 5 μg/kg/day i.p. 15 days) was 77 ± 13 IU and the “activity of T lymphocyte” value (peptide 50 μg/kg/day i.p. 15 days) was 72 ± 12 IU. The “activity of T lymphocyte” value (peptide 500 μg/kg/day i.p. 15 days) was 70 ± 13 IU.
